Results of unrelated studies side by side (data: NIAID ChemDB).

Common to all: toxicity to cultured cells; cells: MT-4; read-out: CC50

CCn is the concentration with n% toxicity to the cells. a–b is a range or a potency band. Lines come from different laboratories, so protocols vary.

Cc1nc(CCCCCCCc2ccccc2)n2nc(Cl)ccc12 ; value: 250 µM
COCOc1ccc(-c2oc3cc(OCOC)cc(O)c3c(=O)c2OCOC)c(OCOC)c1 ; value: 90 µg/mL
C[C@H](CCC(=O)O)[C@H]1CC[C@H]2[C@@H]3CC[C@@H]4C[C@H](O)CC[C@]4(C)[C@H]3C[C@H](O)[C@]12C ; value: 56 µg/mL
CC(=N)CCNC(=O)c1cc(NC(=O)c2cc(NC(=O)c3cc(NP(=O)(OC[C@@H]4C=C[C@H](n5cc(C)c(=O)[nH]c5=O)O4)OC4CCCCC4)cn3C)cn2C)cn1C ; read by: MTT ; value: 76 µM
Cc1ccc(NC2=NS(=O)(=O)NC(Cc3ccc4ccccc4c3)=C2)cc1C ; read by: MTT ; value: 147 µM
CC(C)Oc1nc(Cc2ccccc2)cc(=O)[nH]1 ; value: 646 µM
CCc1c(Sc2cccc3ccccc23)nc(SCC(=O)c2ccc(Cl)cc2)[nH]c1=O ; read by: MTT ; value: 22.44 µM
Cc1cc(=O)oc2c3c(ccc12)OC(C)(C)[C@H](OC(=O)C12CCC(C)(C(=O)O1)C2(C)C)[C@@H]3OC(=O)C12CCC(C)(C(=O)O1)C2(C)C ; value: >15.7 µM
CCCCCCCCCCc1ccc2c(c1)N(C)C(C(C)C)C(=O)NC(CO)C2 ; value: 5 µg/mL
Cc1nc(CCCCCOCc2ccccc2)n2nc(Cl)ccc12 ; value: 290 µM
Cc1ccnc2c1NC(=O)c1cccnc1N2C1CC1 ; value: 290 µM
Cc1cc(/C=C/C#N)cc(C)c1Nc1ccnc(Nc2ccc(C#N)cc2)n1 ; value: 10 µM
O=S1(=O)N=C(Nc2ccc(F)cc2)C=C(Cc2cccc3ccccc23)N1 ; read by: MTT ; value: 158 µM
Cc1nc(CCCCCCC(=O)c2ccccc2)n2nc(-n3ccnn3)ccc12 ; value: 26 µM
C[C@H](CCC(=O)O)[C@H]1CC[C@H]2C3[C@H](OS(=O)(=O)O)C[C@@H]4C[C@H](O)CC[C@]4(C)[C@H]3CC[C@]12C ; value: 307 µg/mL
Cc1cn(CC2CN2CP(=O)(O)O)c(=O)[nH]c1=O ; read by: MTT ; value: >100 µM
Cc1nc(CCCCCCC(=O)c2ccccc2)n2nc(-n3cncn3)ccc12 ; value: 26 µM
Cn1cc(NC(=O)c2cc(NC(=O)c3cc([N+](=O)[O-])cn3C)cn2C)cc1C(=O)NCCC(=N)N ; read by: MTT ; value: 55 µM
Cc1nc(CCCCCOC(=O)c2ccccc2)n2nc(Cl)ccc12 ; value: >25 µM
Cc1nc(NS(=O)(=O)c2cccc([N+](=O)[O-])c2)sc1C(C)(C)C ; read by: MTT ; value: >25 µM
CCCOc1nc(Cc2ccccc2)cc(=O)[nH]1 ; value: 515 µM
CC(C)c1cc(=O)c2ccc3c(c2o1)[C@@H](OC(=O)C12CCC(C)(C(=O)O1)C2(C)C)[C@@H](OC(=O)C12CCC(C)(C(=O)O1)C2(C)C)C(C)(C)O3 ; value: >15.04 µM
O=C1C2c3cccn3S(=O)(=O)c3ccccc3N2C(=O)CN1Cc1ccccc1 ; value: >300 µM
NC(=O)N=Nc1c(O)n(CCOCCn2c(O)c(N=NC(N)=O)c3ccccc32)c2ccccc12 ; read by: MTT ; value: 121 µM
C=CCN1C(=O)c2cccn2S(=O)(=O)c2ccccc21 ; value: 150 µM
COc1ccc(NC2=NS(=O)(=O)NC(Cc3ccccc3)=C2)cc1 ; read by: MTT ; value: >318 µM
C1CNCCNCCCN[C@H]([C@H]2CNCCCNCCNCCCN2)CNC1 ; value: 299 µg/mL
CCO/N=C1\C(=O)N(CCOCCN2C(=O)/C(=N/OCC)c3cc(Cl)ccc32)c2ccc(Cl)cc21 ; read by: MTT ; value: 43.85 µM
Nc1ncnc2c1ncn2CC1CN1CP(=O)(O)O ; read by: MTT ; value: >100 µM
Nc1ncnc2c1ncn2C[C@H](CF)OCP(=O)(O)O ; value: >100 µg/mL
Cc1cs/c(=N\S(=O)(=O)c2cccc([N+](=O)[O-])c2)n1C ; read by: MTT ; value: >25 µM
Cc1cn([C@H]2C[C@H](N=[N+]=[N-])[C@@H](CO)O2)c(=O)[nH]c1=O ; read by: MTT ; value: 46 µM
CC1(C)C=Cc2c(ccc(-c3coc4cc(O)cc(O)c4c3=O)c2O)O1 ; value: 7 µg/mL
O=C1/C(=C/c2ccc(Cl)c(Cl)c2)COC/C1=C\c1ccc(Cl)c(Cl)c1 ; read by: MTT ; value: 200 µM
CC(C)(C)NC(=O)[C@@H]1CSCN1C(=O)[C@@H](O)[C@H](Cc1ccccc1)NC(=O)[C@H](CCC(F)(F)F)NC(=O)COc1cccc2cnccc12 ; read by: MTT ; value: 25 µg/mL
COc1ccc(-c2coc3cc(O)c(OC)cc3c2=O)cc1 ; value: >100 µg/mL
CCCCCCCCCCc1ccc2c(c1)N(C)[C@@H](C(C)C)C(=O)N[C@@H](CO)C2 ; value: 5 µg/mL
O=S1(=O)N=C(Nc2ccc(Br)cc2)C=C(Cc2ccccc2)N1 ; read by: MTT ; value: 163 µM
O=c1[nH]cnc2c1ncn2[C@H]1CC[C@@H](CO)O1 ; value: 60 µM
Cn1cc(NC(=O)c2cc(NC(=O)c3cc([N+](=O)[O-])cn3C)cn2C)cc1C(=O)NCCC#N ; read by: MTT ; value: 124 µM
CCC(C)Oc1nc(Cc2ccccc2)c(C)c(=O)[nH]1 ; value: 180 µM
CC(C)c1s/c(=N\S(=O)(=O)c2cccc([N+](=O)[O-])c2)n(C)c1C(F)(F)F ; read by: MTT ; value: >25 µM
O=S1(=O)N=C(Nc2ccccc2)C=C(Cc2cccc3ccccc23)N1 ; read by: MTT ; value: 158 µM
O=C1NC(=S)NC(=O)C1=Cc1cc(O)c(O)c(O)c1 ; read by: MTT ; value: 70 µM
CCCCCCCCCCc1ccc2c(c1)N(C)[C@H](C(C)C)C(=O)N[C@@H](CO)C2 ; value: 5 µg/mL
O=C1/C(=C/c2cc(O)c(O)c(O)c2)CCC/C1=C\c1cc(O)c(O)c(O)c1 ; read by: MTT ; value: 50 µM
CC(C)=CCc1c(O)ccc2c1OC(c1ccccc1)CC2=O ; value: >63 µg/mL
COc1cc(NC2=NS(=O)(=O)NC(Cc3ccccc3)=C2)cc(OC)c1OC ; read by: MTT ; value: >310 µM
CCc1nc(CCCCCCC(=O)c2ccccc2)n2nc(Cl)ccc12 ; value: 25 µM
N#Cc1ccc(NC2=NS(=O)(=O)NC(Cc3cccc4ccccc34)=C2)cc1 ; read by: MTT ; value: 254 µM
CCCCCCCCCCc1ccc2c(c1)N(C)[C@@H](C(C)C)C(=O)N[C@@H](CO)CC2 ; value: 5–10 µg/mL
Cc1cc(/C=C/C#N)cc(C)c1Oc1ccnc(Nc2ccc(C#N)cc2)n1 ; value: >25 µM
C[C@]1(CO)O[C@@H](n2cnc3cncnc32)C[C@@H]1O ; value: 50 µM
Cc1cc(C#N)cc(C)c1Nc1ccnc(Nc2ccc(C#N)cc2)n1 ; value: 5.036 µM
CC(C)=CCN1C(=O)c2cccn2S(=O)(=O)c2ccccc21 ; value: 41 µM
Cc1cn([C@H]2C[C@H](N=[N+]=[N-])[C@@H](COP(=O)(Nc3cc(C(=O)NCCC(=N)N)n(C)c3)OC3CCCCC3)O2)c(=O)[nH]c1=O ; read by: MTT ; value: 193 µM
Cc1cn([C@H]2C[C@H](N=[N+]=[N-])[C@@H](CO)O2)c(=O)[nH]c1=O ; value: >7.5 µM
CC(=O)c1s/c(=N\S(=O)(=O)c2cccc([N+](=O)[O-])c2)n(C)c1C ; read by: MTT ; value: >25 µM
O=c1cc(Cc2ccccc2)nc(OC2CCCC2)[nH]1 ; value: 466 µM
Cc1cn([C@H]2C[C@H](N=[N+]=[N-])[C@@H](CO)O2)c(=O)[nH]c1=O ; read by: MTT ; value: 500 µg/mL
Cc1oc2c3c(ccc2c(=O)c1C)OC(C)(C)[C@H](OC(=O)C12CCC(C)(C(=O)O1)C2(C)C)[C@@H]3OC(=O)C12CCC(C)(C(=O)O1)C2(C)C ; value: 4.72 µM
CC(C)N1C(=O)c2cccn2S(=O)(=O)c2cc(Cl)ccc21 ; value: >300 µM
Cc1c(C(C)C)s/c(=N\S(=O)(=O)c2cccc([N+](=O)[O-])c2)n1C ; read by: MTT ; value: >25 µM
CC(C[C@H](NC(=O)COc1cccc2cnccc12)C(=O)N[C@@H](Cc1ccccc1)[C@H](O)C(=O)N1CSC[C@H]1C(=O)NC(C)(C)C)C(F)(F)F ; read by: MTT ; value: 12.5 µg/mL
C[C@H](Cn1cnc2c(N)nc(N)nc21)OCP(=O)(O)O ; value: >100 µg/mL
C=C1OC(C(=O)O)C(/C(=C/C(=O)O)C(=O)OC2C3COC(=O)c4cc(O)c(O)c(O)c4-c4c(cc(O)c(O)c4O)C(=O)OC2C(O)C(OC(=O)c2cc(O)c(O)c(O)c2)O3)c2c1cc(O)c(O)c2O ; value: 17 µM
C=Cc1s/c(=N\S(=O)(=O)c2cccc([N+](=O)[O-])c2)n(C)c1C ; read by: MTT ; value: 4.4 µM
Cc1c(Sc2ccccc2)n(COCCO)c(=O)[nH]c1=O ; read by: MTT ; value: 399 µM
O=C1C(=O)N(CCOCCN2C(=O)C(=O)c3cc(Cl)ccc32)c2ccc(Cl)cc21 ; read by: MTT ; value: 184 µM
CC(C)Nc1cccnc1N1CCN(C(=O)c2cc3cc(NS(C)(=O)=O)ccc3[nH]2)CC1 ; read by: MTT ; value: >25 µM
COc1cc(O)ccc1CCCc1cc(O)c2c(c1CC=C(C)C)C=CC(C)(C)O2 ; value: 10 µg/mL
CCCOc1nc(Cc2ccccc2)c(CC)c(=O)[nH]1 ; value: 216 µM
C[C@H](CCC(=O)NCCS(=O)(=O)O)[C@H]1CC[C@H]2[C@@H]3CC[C@@H]4C[C@H](OS(=O)(=O)O)CC[C@]4(C)C3CC[C@]12C ; value: >500 µg/mL
NC(=O)c1ccc(NC2=NS(=O)(=O)NC(Cc3ccccc3)=C2)cc1 ; read by: MTT ; value: 286 µM
CCc1c(Sc2cccc3ccccc23)nc(SCC(=O)c2ccccc2)[nH]c1=O ; read by: MTT ; value: 36.74 µM
CCCCCOc1nc(Cc2ccccc2)cc(=O)[nH]1 ; value: 245 µM
O=C1/C(=C/c2ccc(O)c([N+](=O)[O-])c2)CN(Cc2ccccc2)C/C1=C\c1ccc(O)c([N+](=O)[O-])c1 ; read by: MTT ; value: 19 µM
COc1nc(Cc2ccccc2)c(C)c(=O)[nH]1 ; value: 517 µM
CCc1cc(=O)c2ccc3c(c2o1)[C@@H](OC(=O)C12CCC(C)(C(=O)O1)C2(C)C)[C@@H](OC(=O)C(C)C)C(C)(C)O3 ; value: >18.5 µM
Cc1c(C(C)(C)C)s/c(=N\S(=O)(=O)c2cccc([N+](=O)[O-])c2)n1C ; read by: MTT ; value: >25 µM

11 of the rows above, restated:

{"SMILES": "CC(C)Nc1cccnc1N1CCN(C(=O)c2cc3cc(NS(C)(=O)=O)ccc3[nH]2)CC1", "read by": "MTT", "value": ">25 µM"}
{"SMILES": "CCO/N=C1\\C(=O)N(CCOCCN2C(=O)/C(=N/OCC)c3cc(Cl)ccc32)c2ccc(Cl)cc21", "read by": "MTT", "value": "43.85 µM"}
{"SMILES": "O=C1C2c3cccn3S(=O)(=O)c3ccccc3N2C(=O)CN1Cc1ccccc1", "value": ">300 µM"}
{"SMILES": "C[C@H](CCC(=O)NCCS(=O)(=O)O)[C@H]1CC[C@H]2[C@@H]3CC[C@@H]4C[C@H](OS(=O)(=O)O)CC[C@]4(C)C3CC[C@]12C", "value": ">500 µg/mL"}
{"SMILES": "CC(C)=CCN1C(=O)c2cccn2S(=O)(=O)c2ccccc21", "value": "41 µM"}
{"SMILES": "Cc1cc(=O)oc2c3c(ccc12)OC(C)(C)[C@H](OC(=O)C12CCC(C)(C(=O)O1)C2(C)C)[C@@H]3OC(=O)C12CCC(C)(C(=O)O1)C2(C)C", "value": ">15.7 µM"}
{"SMILES": "Cc1cc(/C=C/C#N)cc(C)c1Nc1ccnc(Nc2ccc(C#N)cc2)n1", "value": "10 µM"}
{"SMILES": "Cc1nc(CCCCCOCc2ccccc2)n2nc(Cl)ccc12", "value": "290 µM"}
{"SMILES": "O=S1(=O)N=C(Nc2ccccc2)C=C(Cc2cccc3ccccc23)N1", "read by": "MTT", "value": "158 µM"}
{"SMILES": "CC(C)c1s/c(=N\\S(=O)(=O)c2cccc([N+](=O)[O-])c2)n(C)c1C(F)(F)F", "read by": "MTT", "value": ">25 µM"}
{"SMILES": "CCc1nc(CCCCCCC(=O)c2ccccc2)n2nc(Cl)ccc12", "value": "25 µM"}